According to patent US11344554B2, “Animal and human anti-malarial agents” (Celgene Corporation, priority 2016, dated 2022):

Test system: Plasmodium falciparum
Assay: Plasmodium falciparum in vitro [3H]-hypoxanthine parasite growth inhibition assay
Format: cell-based
Settings: read-out: Act Class (IC50 activity level); P. falciparum asexual blood stage parasites in human erythrocytes, [3H]-hypoxanthine uptake

| Compound | IC50 [nM] |
| --- | --- |
| CC(C)(C)Nc1ncc2nc(Nc3ccc(Cl)cc3)n(C3CCNC3)c2n1 (centres unmarked) | 500 to 1200 |
| CC(C)(C)Nc1ncc2nc(Nc3cc(Cl)cc(Cl)c3)n(C3CCNC3)c2n1 (centres unmarked) | 100 to 200 |
| CC(N)Cn1c(Nc2cc(Cl)cc(C(F)(F)F)c2)nc2cnc(NC3CCCC3)nc21 (centres unmarked) | 200 to 500 |
| CC1(Nc2ncc3nc(Nc4cc(Cl)cc(C(F)(F)F)c4)n(C4CCNC4)c3n2)CC1 (centres unmarked) | 100 to 200 |
| CC(C)(C)Nc1ncc2nc(Nc3cc(Cl)cc(C(F)(F)F)c3)n(C3CNC3)c2n1 | 200 to 500 |
| CNCCn1c(Nc2cc(Cl)cc(C(F)(F)F)c2)nc2cnc(NC(C)(C)C)nc21 | 500 to 1200 |
| CC1(Nc2ncc3nc(Nc4cc(Cl)cc(C(F)(F)F)c4)n(C4CCNC4)c3n2)CCCC1 (centres unmarked) | 100 to 200 |
| CC(C)(C)Nc1ncc2nc(Nc3ccc(Cl)c(Cl)c3)n(C3CCNC3)c2n1 (centres unmarked) | 100 to 200 |
| N#Cc1cc(Cl)cc(Nc2nc3cnc(NC4CCCC4)nc3n2C2CCNC2)c1 (centres unmarked) | 500 to 1200 |
| NCCn1c(Nc2cc(Cl)cc(C(F)(F)F)c2)nc2cnc(NC3CCCC3)nc21 | 500 to 1200 |
| CC(C)(C)Nc1ncc2nc(Nc3cc(Cl)cc(C(F)(F)F)c3)n([C@H]3CCNC3)c2n1 | 100 to 200 |
| CC(C)(C)Nc1ncc2nc(Nc3cccc(C(F)(F)F)c3)n(CCN3CCCC3)c2n1 | 500 to 1200 |
| CC(C)Nc1ncc2nc(Nc3cc(F)cc(Cl)c3)n(C3CCNC3)c2n1 (centres unmarked) | 500 to 1200 |
| CC(C)(C)Nc1ncc2nc(Nc3ccc(C(F)(F)F)cc3)n(C3CCNC3)c2n1 (centres unmarked) | 200 to 500 |
| CC(N)Cn1c(Nc2cc(Cl)cc(C(F)(F)F)c2)nc2cnc(NC(C)(C)C)nc21 (centres unmarked) | 500 to 1200 |
| FC(F)(F)c1cc(Cl)cc(Nc2nc3cnc(NC4CCC4)nc3n2[C@@H]2CCNC2)c1 | 200 to 500 |
| FC(F)(F)c1cc(Cl)cc(Nc2nc3cnc(NC4CCC4)nc3n2[C@H]2CCNC2)c1 | 100 to 200 |
| CNCCn1c(Nc2cc(Cl)cc(C(F)(F)F)c2)nc2cnc(NC3CCCC3)nc21 | 200 to 500 |
| CC(C)(N)Cn1c(Nc2cc(Cl)cc(C(F)(F)F)c2)nc2cnc(NC3CCCC3)nc21 | 200 to 500 |
| CC(C)Nc1ncc2nc(Nc3cc(Cl)cc(C(F)(F)F)c3)n(C3CCNC3)c2n1 (centres unmarked) | 200 to 500 |
| CC(C)(C)Nc1ncc2nc(Nc3cccc(C(F)(F)F)c3)n(C3CCNC3)c2n1 (centres unmarked) | 100 to 200 |
| 9-(2-amino-2-methylpropyl)-N2-tert-butyl-N8-(3-chloro-5-(trifluoromethyl)phenyl)-9H-purine-2,8-diamine | 500 to 1200 |
| CC(C)(C)Nc1ncc2nc(Nc3cc(Cl)cc(C(F)(F)F)c3)n(CCN)c2n1 | 500 to 1200 |
| CC(C)Nc1ncc2nc(Nc3cc(Cl)cc(C#N)c3)n(C3CCNC3)c2n1 (centres unmarked) | 200 to 500 |
| FC(F)(F)c1cc(Cl)cc(Nc2nc3cnc(NC4CCC4)nc3n2C2CCNC2)c1 (centres unmarked) | 200 to 500 |
| CC(C)(C)Nc1ncc2nc(Nc3cc(Cl)cc(C(F)(F)F)c3)n(C3CCNC3)c2n1 (centres unmarked) | < 100 |
